Legend:
[1] = biological target: YscUCC of the YscUC suppressor mutant A268F, Y. pseudotuberculosis, P69987 264-354
[2] = biological target: YscUCC-His6 with A268F, from GST-A268F-His6, Y. pseudotuberculosis, P69987 264-354
[3] = biological target: YscUCN, N-terminal cytoplasmic polypeptide of the cleaved cytosolic domain YscUC of YscU, Y. pseudotuberculosis, P69987 211-263
[4] = biological target: YscUCC of the YscUC variant H324A, Y. pseudotuberculosis, P69987 264-354

| Substance | dissociation lifetime τ diss at 37°C [3] [min] | further results |
| --- | --- | --- |
| YscUCN, N-terminal cytoplasmic polypeptide of the cleaved cytosolic domain YscUC of YscU A268F | – | result [1]: binds |
| GST-YscUCN, the GST-carrying N-terminal fragment of GST-YscUC-His6 A268F | – | result [2]: binds |
| YscUCC of the YscUC suppressor mutant V292T | 60.8 | – |
| YscUCC of the YscUC suppressor mutant A268F | 70.1 | – |
| YscUCC of the YscUC suppressor mutant Y287G | 138 | – |
| YscUCN, N-terminal cytoplasmic polypeptide of the cleaved cytosolic domain YscUC of YscU H324A | – | result [4]: binds |

— publication PMC3504009, “Autoproteolysis and Intramolecular Dissociation of Yersinia YscU Precedes Secretion of Its C-Terminal Polypeptide YscUCC” (2012)
